The values below come from ChEMBL document CHEMBL3045952, “Design, synthesis, and fungicidal activity of novel analogues of pyrrolnitrin” (J Agric Food Chem, 2009).

In brackets after ≈: the same amount, converted by molar mass.

One assay deals with Fusarium oxysporum. Put plainly: Fungicidal activity against Fusarium oxysporum assessed as mycelium growth inhibition by mycelium growth rate method.
Another assay relates to Alternaria solani. Nature of the assay: Fungicidal activity against Alternaria solani assessed as mycelium growth inhibition by mycelium growth rate method.
The test system of a further assay is Fusarium graminearum. Nature of the assay: Fungicidal activity against Fusarium graminearum assessed as mycelium growth inhibition by mycelium growth rate method.
The subject of assay [1] is Botryosphaeria berengeriana. Nature of the assay: Fungicidal activity against Botryosphaeria berengeriana assessed as mycelium growth inhibition by mycelium growth rate method.
The test system of a further assay is Mycosphaerella arachidis. Put plainly: Fungicidal activity against Mycosphaerella arachidis assessed as mycelium growth inhibition by mycelium growth rate method.

The term EC50 denotes the concentration that produces a half-maximal response. `O=[N+]([O-])c1cc(-c2cc(F)c([N+](=O)[O-])cc2[N+](=O)[O-])cs1`: the EC50 in the assay with Fusarium oxysporum turned out to be 38.4 µg/mL (≈ 123 µM); with Alternaria solani, 33.5 µg/mL (≈ 107 µM); in the assay on Fusarium graminearum, 18.5 µg/mL (≈ 59.1 µM); in assay [1], 4.39 µg/mL (≈ 14 µM); with Mycosphaerella arachidis, 9.36 µg/mL (≈ 29.9 µM).

Regarding `O=[N+]([O-])c1cc([N+](=O)[O-])c(-c2ccsc2[N+](=O)[O-])cc1F`, the 50% effective concentration (EC50) came to 5.55 µg/mL (≈ 17.7 µM) in the assay on Fusarium oxysporum; 29.6 µg/mL (≈ 94.6 µM) in the assay with Alternaria solani; 8.33 µg/mL (≈ 26.6 µM) in the assay with Fusarium graminearum; 3.57 µg/mL (≈ 11.4 µM) in assay [1]; 6.42 µg/mL (≈ 20.5 µM) with Mycosphaerella arachidis.
